Assay results published in PMC2730762 (Biochemistry, 2009).

What was measured:
[1] = system: CC[C@H](C)[C@H](NC(=O)[C@@H]1CCCN1C(=O)[C@@H](N)CCCCN)C(=O)N[C@@H](CC(C)C)C(=O)N[C@@H](Cc1ccccc1)C(=O)N[C@@H](Cc1ccc([N+](=O)[O-])cc1)C(=O)N[C@@H](CCCNC(=N)N)C(=O)N[C@@H](CC(C)C)C(=O)O; experiment: purified protein, by the assay type; settings: other: Recombinant K110pN PfPM1
[2] = system: CC[C@H](C)[C@H](NC(=O)[C@H](CCCNC(=N)N)NC(=O)[C@H](CCC(=O)O)NC(=O)[C@@H](N)CC(C)C)C(=O)N[C@@H](Cc1ccccc1)C(=O)N[C@@H](Cc1ccc([N+](=O)[O-])cc1)C(=O)N[C@@H](CO)C(=O)N[C@@H](Cc1ccccc1)C(=O)O; experiment: purified protein, by the assay type; settings: other: Recombinant K110pN PfPM1

Recombinant K110pN Plasmepsin 1 (Plasmodium falciparum 3D7)
Km [1]: 13.2 ± 1.7 µM | kcat [1]: 1.1 s⁻¹ | kcat/Km [1]: 85000 M⁻¹ s⁻¹ | Km [2]: 8.6 ± 0.2 µM | kcat [2]: 2.6 s⁻¹ | kcat/Km [2]: 302000 M⁻¹ s⁻¹
